# According to US20240043504A1 (published 2024):
# Numbering of substitutions follows the chain as printed.
# T1: MERS-CoV (NCoV/Novel coronavirus) Spike Protein S1 Protein (aa 1-725, His Tag) (Sino 40069-V08B1) (MERS-CoV, UniProt K9N5Q8 18-725)
# T1 sequence: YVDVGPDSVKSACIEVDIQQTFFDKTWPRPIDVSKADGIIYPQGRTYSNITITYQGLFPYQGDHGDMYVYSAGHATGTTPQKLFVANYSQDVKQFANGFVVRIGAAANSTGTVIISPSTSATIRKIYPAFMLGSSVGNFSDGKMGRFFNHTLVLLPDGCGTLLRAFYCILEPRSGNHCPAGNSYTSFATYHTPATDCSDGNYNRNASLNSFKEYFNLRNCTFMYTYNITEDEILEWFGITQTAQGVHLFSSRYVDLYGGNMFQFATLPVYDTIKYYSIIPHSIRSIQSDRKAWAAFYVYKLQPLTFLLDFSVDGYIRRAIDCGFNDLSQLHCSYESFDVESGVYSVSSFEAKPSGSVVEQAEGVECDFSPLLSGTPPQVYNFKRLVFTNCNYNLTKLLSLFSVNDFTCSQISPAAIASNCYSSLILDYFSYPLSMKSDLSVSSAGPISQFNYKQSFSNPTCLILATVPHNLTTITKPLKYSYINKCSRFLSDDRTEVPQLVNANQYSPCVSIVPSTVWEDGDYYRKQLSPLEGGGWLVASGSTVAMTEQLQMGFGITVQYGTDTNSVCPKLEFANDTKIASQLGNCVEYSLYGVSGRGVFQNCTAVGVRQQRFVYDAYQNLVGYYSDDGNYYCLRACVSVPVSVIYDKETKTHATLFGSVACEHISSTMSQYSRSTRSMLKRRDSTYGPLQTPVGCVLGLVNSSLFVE
# B1: mAb10913 (antibody)
# heavy: not shown
# light: QSVLTQPPSVSAAPGQKVTISCSGSSSNIGNNYVSWYQQLPGTAPKLLIYDNNKRPSGIPDRFSGSKSGTSATLGITGLQTGDEADYYCGTWDSSLSVGRVFGTGTKVTVLGQPKAAPSVTLFPPSSEELQANKATLVCLISDFYPGAVTVAWKADSSPVKAGVETTTPSKQSNNKYAASSYLSLTPEQWKSHRSYSCQVTHEGSTVEKTVAPTECS
# B2: mAb11004 (antibody, V domains shown)
# VH: QVQLVESGGGVVQPGRSLRLSCVASGFTFSIYGMDWVRQAPGKGLEWVAVISYDGSNKYYADSVKGRFTISRDNSKNTLYLQMNSLRPEDTAVYYCAKDREAAADAFDIWGQGTMVTVSS
# VL: DIQMTQSPSSVSASVGDRVTITCRASQGISSWLAWYQQKPGKAPKLLIYAASSLHSGVPSRFSGSGSGTDFTLTISSLQPEDFATYYCQQANSFRLTFGGGTKVEIKR
# B3: mAb10984 (antibody)
# heavy: not shown
# light: QSVLTQPPSVSAAPGQKVTISCSGSSSNIGNNYVSWYQQLPGTAPKLLIYDNNKRPSGIPDRFSGSKSGTSATLGITGLQTGDEADYYCGTWDSSLSAGVFGGGTKLTVLGQPKAAPSVTLFPPSSEELQANKATLVCLISDFYPGAVTVAWKADSSPVKAGVETTTPSKQSNNKYAASSYLSLTPEQWKSHRSYSCQVTHEGSTVEKTVAPTECS
# B4: mAb10922 (antibody, V domains shown)
# VH: EVQLVESGGGLVQPGGSLRLSCAASGFTFSIYEMNWVRQAPGKGLEWVSYITSSGTTIYYADSVKGRFTISRDNAKNSLYLQMNSLRAEDTAVYYCASSSSSGYYFDYWGQGTLVTVSS
# VL: not shown
# B5: mAb10922 (antibody, V domains shown)
# VH: B4 VH
# VL: not shown
# B6: mAb10922 (antibody, V domains shown)
# VH: B4 VH
# VL: not shown
# B7: mAb10982 (antibody)
# heavy: not shown
# light: QSVLTQPPSVSGAPGQRVTISCTGSSSNIGTGYDVHWYQQLPGTAPKLLIYGNSNRPSGVPDRFSGSKSGTSASLAITGLQAEDEADYYCQSYDSSLSGYVVFGGGTKLTVLGQPKAAPSVTLFPPSSEELQANKATLVCLISDFYPGAVTVAWKADSSPVKAGVETTTPSKQSNNKYAASSYLSLTPEQWKSHRSYSCQVTHEGSTVEKTVAPTECS
# B8: mAb10985 (antibody)
# heavy: not shown
# light: B7 light with T31A, Y100S, V101Y, G105T, L109V
# B9: mAb11006 (antibody, V domains shown)
# VH: EVQLVESGGGLVQPGGSLRLSCAASGFIVSRNYMSWVRQAPGKGLEWVSVIYSGGSTFYADSVKGRFTISRHNSKNTLYLQMNSLKAEDTAVYYCARELRGYFDYWGQGTLVTVSS
# VL: DIQLTQSPSFLSASVGDRVTITCWASQGISSYLAWYQQKPGKAPKLLIYAASTLQSGVPSRFSGSGSGTEFTLTISSLQPEDFATYYCQLLNSYPYTFGQGTKLEIKR
# B10: mAb11008 (antibody, V domains shown)
# VH: EVQLVESGGGLVQPGGSLRLSCAASGFTVSSNYMTWVRQAPGKGLEWVSVIYSGGSTFYADSVKGRFTISRHNSENTLYLQMNSLRAEDTAVYYCARDLAAAGTDYWGQGALVTVSS
# VL: B9 VL with E81D, L90H, P95L
# B11: mAb10930 (antibody, V domains shown)
# VH: EVQLVESGGGLVQPGRSLRLSCAASGFTFDDYAMYWVRQAPGKGLEWVSGISWNSGSIGYADSVKGRFTISRDNAKNSLYLQMNSLRAADTALYYCAKDKDWNSRGYYYYGMDVWGQGTTVTVSS
# VL: not shown
# B12: mAb10935 (antibody, V domains shown)
# VH: EVQLVESGGGLVQPGGSLRLSCAASGFTVSSNYMSWVRQAPGKGLEWVSLIYSGGSTYYADSVKGRFTISRHNSKNTLYLQMNSLRSEDTAVYYCARVPLGDYYYGMDVWGQGTTVTVSS
# VL: DIQMTQSPSSLSASVGDRVTITCQASQDINKYLNWYQQKPGKAPKLLIYDASNLETGVPSRFSGSGSGTDFTFTISSLQPEDIATYYCQQSDNLPLTFGGGTKVEIKR
# B13: mAb10966 (antibody, V domains shown)
# VH: EVQLVESGGGLVQPGGSLRLSCAASGLTVSSNYMSWVRQAPGKGLEWVSVIYSGGSTFYADSVKGRFTISRDNSKNTLYLQMNSLRPEDTAVYYCAREGRIAATGYGMDVWGQGTTVTVSS
# VL: B12 VL with N30S, K31N, E55G, G66R, Q89H, S91Y, L96Q, G100P, E105D
# B14: mAb10956 (antibody, V domains shown)
# VH: EVQLVESGGGLVQPGGSLRLSCAASGLTVSSNYMSWVRQAPGKGLEWVSVIYSGGSTFYADSVKGRFTISRDNSKNTLYLQMNSLRAEDTAVYYCARDLIKYGMDVWGQGTTVTVSS
# VL: B12 VL with N30S, K31N, S91Y, L96P, T97H, G100P, E105D
# B15: mAb10982 (antibody, V domains shown)
# VH: EVQLVESGGGLVQPGGSLRLSCAASGLTVSSNYMSWVRQAPGKGLEWVSVIYSGGTTYYADSVKGRFTISRHNSKNTLSLQMNSLRAEDTAVYYCARGEGANYYGMDVWGQGTTVTVSS
# VL: QSVLTQPPSVSGAPGQRVTISCTGSSSNIGTGYDVHWYQQLPGTAPKLLIYGNSNRPSGVPDRFSGSKSGTSASLAITGLQAEDEADYYCQSYDSSLSGYVVFGGGTKLTVLG
# B16: mAb10932 (antibody, V domains shown)
# VH: EVQLVESGGGLVQSGGSLRLSCAASGLTVSSNYMSWVRQAPGKGLEWVSVIYSGGSTFYSDSVKGRFTISRHNSKNTLYLQMNSLRAEDTAVYYCARARGDAFDIWGQGTMVTVSS
# VL: DIQMTQSPSSLSASVGDRVTITCQASQGISNYLNWYQQKPGKAPKLLISDASNLETGVPSRFSGSGSGTDFTFTISSLQPEDIATYYCQQYDNLRFFTFGPGTKVDIKR
# B17: mAb10971 (antibody, V domains shown)
# VH: B14 VH with V12I, L27V, A60S, T68S, I100Y, K101Y
# VL: DIQLTQSPSFLSASVGDRVTITCRASQGISTYLAWYQQKPGKAPKLLIYAASTLQSGVPSRFSGSGSGTEFTLTISSLQPEDFATYYCQQLDSYPGLTFGGGTKVEIKR
# B18: mAb10939 (antibody, V domains shown)
# VH: B14 VH with S35N, A40V, T57K, A60V, D72H, A87P, A96T, L99A, I100Q, K101Y
# VL: DIQMTQSPSSLSASVGDRVTITCRASQSISTYLHWYQQKPGEAPKLLIYAASSLQSGVPSRFSGSGSGTDFTLTISSLQPEDFATYYCQQSYSTPPEIFGQGTKLEIKR
# B19: mAb10998 (antibody, V domains shown)
# VH: EVQLVESGGGLVHPGGSLRLSCAASGLTVSSNYMSWVRQAPGKGLEWVSVIYSGGSTYYADSVKGRFTISRHNSKNTLFLQMNSLRAEDTAVYYCARDRPITGTTLDVWGQGTTVTVSS
# VL: B18 VL with S12F, T31S, H34N, E42K, T85F, S91T, E97I, I98T, K104R
# Columns and labels:
# [1] = biological target: human FcγR3a 176Val allotype receptor (human, UniProt P08637 17-254); test: cell-based or functional assay
# [2] = biological target: SARS-CoV-2-S-RBD-mmH (RBD of SARS-CoV-2 spike, amino acids 319-541, with a 6x histidine tag and two (SARS-CoV-2)); test: ELISA, RBD-mmH coated, supernatant 1:40, a-mFc detection
# [3] = biological target: SARS-CoV-2 spike protein (S-wt, Wuhan-Hu-1, NCBI Accession Number MN908947.3) on VSV pseudoparticles (SARS-CoV-2, UniProt P0DTC2 14-1273); test: cell-based or functional assay
# [4] = biological target: SARS-COV-2 RBD extracellular domain expressed with a C-terminal mouse IgG2a (SARS-COV-2 RBD-mFc) (SARS-CoV-2); test: SPR, captured mAb, RBD-mFc in solution, 37 C
# [5] = biological target: receptor binding domain (RBD) portion of the SARS-CoV-2 Spike protein (amino acids Arg319-Phe541) ex (SARS-CoV-2)
# [6] = biological target: T1, MERS-CoV (NCoV/Novel coronavirus) Spike …; test: Luminex, supernatant
# MERS.hFc (mAb2664-L1) = MERS.hFc (mAb2664-L1) (MERS-CoV); test: Luminex, supernatant
# Bt-MERS.hFc (mAb2664-L2) = Bt-MERS.hFc (mAb2664-L2) (MERS-CoV); test: Luminex, supernatant
# MERS.mFc (mAb2663-L1) = MERS.mFc (mAb2663-L1) (MERS-CoV); test: Luminex, supernatant
binder,measurement,setting,value
B1,"ADCC Mean RLU (surrogate reporter assay, spike-expressing target cells)",[1],11500 RLU
B2,Binding Signal (absorbance at 450 nm),[2],2.91 absorbance at 450 nm
B3,"ADCC Mean RLU (surrogate reporter assay, spike-expressing target cells)",[1],6780 RLU
B4,"IC50 (M), neutralization",[3],1.21e-10 M
B5,30 nM Ag Bound (RU),[4],97 RU
same,IC50,[5],0.0665 nM
B6,MFI,[6],22 MFI
same,MFI,MERS.hFc (mAb2664-L1),21 MFI
same,MFI,Bt-MERS.hFc (mAb2664-L2),24 MFI
same,MFI,MERS.mFc (mAb2663-L1),20 MFI
B7,"ADCC Mean RLU (surrogate reporter assay, spike-expressing target cells)",[1],7900 RLU
B8,"ADCC Mean RLU (surrogate reporter assay, spike-expressing target cells)",[1],5840 RLU
B9,Binding Signal (absorbance at 450 nm),[2],2.62 absorbance at 450 nm
B10,Binding Signal (absorbance at 450 nm),[2],2.91 absorbance at 450 nm
B11,"IC50 (M), neutralization",[3],1.07e-09 M
B12,"IC50 (M), neutralization",[3],2.21e-10 M
B13,"IC50 (M), neutralization",[3],1e-10 M
B14,"IC50 (M), neutralization",[3],1.28e-10 M
B15,"IC50 (M), neutralization",[3],3.69e-10 M
B16,"IC50 (M), neutralization",[3],3.58e-10 M
B17,"IC50 (M), neutralization",[3],1.55e-10 M
B18,"IC50 (M), neutralization",[3],2.36e-10 M
B19,Binding Signal (absorbance at 450 nm),[2],2.83 absorbance at 450 nm
